One may read the pKi as −log10 of the Ki, conventionally taken in molar units. Usually pIC50 stands for −log10 of the IC50, conventionally taken in molar units.

pIC50, pKi: −log10 of the molar value.

The test system of assay [1] is SARS-CoV-2. In words: Cellular antiviral assay, SARS-CoV-2 infected A549-hACE2 cells (qPCR of viral mRNA). The conditions noted are these: 2 μM, 24 h. A general note: Quantitative PCR measures a nucleic acid by following its amplification.
The target in assay [2] is T1, SARS-CoV-2 M^Pro (Severe acute respiratory syndrome coronavirus 2, UniProt P0DTD1). Briefly: Determination of KI values for SARS-CoV-2 M^Pro (initial velocity, competitive inhibition). The assay is classed as biochemical. To be noted: read-out: KI, M^Pro; estimated from the initial portion of the progress curves.
In the next assay the target is SARS-CoV-2 PL^Pro (Severe acute respiratory syndrome coronavirus 2, UniProt P0DTD1). In words: Determination of IC50 values for SARS-CoV-2 PL^Pro (Z-RLRGG-AMC substrate). The conditions noted are these: read-out: PL^Pro IC50; 30 nM PL^Pro, 20 min preincubation.
The subject of assay [3] is SARS-CoV-2. In words: Cellular antiviral assay, SARS-CoV-2 infected Huh7.5 cells (qPCR of viral mRNA). The conditions noted are these: 2 μM, 24 h.
The target in assay [4] is T1, SARS-CoV-2 M^Pro. Briefly: Determination of IC50 values for SARS-CoV-2 M^Pro (fluorogenic peptide substrate, end-point). The conditions noted are these: read-out: biochemical IC50 for the inhibition of M^Pro.

With `C#CCOCCC(=O)N[C@H](Cc1ccccc1)C(=O)N[C@@H](Cc1ccccc1)C(=O)N[C@@H](CCCNC(N)=O)C(=O)CCl`, the “antiviral activity, in words” value with SARS-CoV-2 [1] and in the assay on SARS-CoV-2 [3] was “poor antiviral activity” in each case. Also, the negative logarithm of the Ki (pKi) at SARS-CoV-2 M^Pro [2] is 6.70. Moreover, the pIC50 on SARS-CoV-2 PL^Pro was 4.40.

With `C#CCOCCC(=O)N[C@H](Cc1ccccc1)C(=O)N[C@@H](Cc1ccccc1)C(=O)N[C@@H](CCCNC(=N)N)C(=O)CCl`, the “antiviral activity, in words” value with SARS-CoV-2 [1] and in the assay with SARS-CoV-2 [3] was “poor antiviral activity” each time. Moreover, at SARS-CoV-2 M^Pro [4], the pIC50 is 7.70. The pKi at SARS-CoV-2 M^Pro [2] was 6.52.
